Changes are numbered by the printed parent chain.
B1: monoclonal antibody A9 (antibody, V domains shown)
VH: KVQLQESGAELMKPGASVKISCKATGYTFSSYWIQWIKQRPGHGLEWIGEILPGTGNTNYSEKFKGKATFTTDTSSNTAYMHFSSLTSEDSAVYYCSRCEGEGYFQAWFAYWGQGTTVTVSS
VL: DIQMTQSPSSLSASLGGKVTITCKASQDIKQYIAWYQYKPGKGPRLLIHYTSTLQPGIPSRFSGSGSGRDYSFSISNLDPEDIATYYCLQYDHLYTFGGGTKLEIKR
B2: monoclonal antibody B10 (antibody, V domains shown)
VH: EVQLQESGTGLVKPGASVKLSCKASGYTFTEYIINWVKQRSGQGLEWIGWFYPGSGDIKYNEKFKDKATLTADKSSSTVYMELSRLTSEDSAVYFCARNGRWDDDYFDYWGQGTTVTVSS
VL: DIVLTQSPSSMYASLGERVTITCKASQDINNYLRWFQQKPGKSPKTLIYRANRLVDGVPSRFSGSGSGQDYSLTISSLEYEDMGFYSCLQYDEFPYTFGGGTKLEIKR
B3: monoclonal antibody D3 (antibody, V domains shown)
VH: KVKLQESGAELMKPGASVKISCKSTGYTFSNYWIEWIKQRPGHGLEWIGEILPGSGSINYDEKFKGKATFTADTSSDTVYMFLSGLTSEDSAVYYCARQANRGFDSAWFAYWGQGTTVTVSS
VL: B1 VL with S14F, L15V, Q31K, A34G, Y38Q, D79E, H93S
B4: monoclonal antibody D9 (antibody, V domains shown)
VH: QVQLQESGPELVKPGASMKISCKASGYSFTEHIINWVKQTHRENLEWIGLINPNSGGTNYNQKFKDKATLTVDTASNTAYMELLSLTSEDSAVYYCARLRYDAAYWGQGTTVTVSS
VL: DIELTQSHKFMSTSVGDRVSITCKASQDVTAAVAWYQQKPGQSPKLLIHSASYRYTGVPDRFTGSGSGSDFTFTISSVQAEDLAVYYCQQYYNTPLTFGAGTKLELKR
B5: humanized D9 (antibody, V domains shown)
VH: QVQLVQSGAEVKKPGASVKVSCKASGYTFTEHIINWVRQAPGQNLEWMGLINPNSGGTNYNQKFKDRVTMTTDTSTSTAYMELLSLRSDDTAVYYCARLRYDAAYWGQGTTVTVSS
VL: DIQMTQSPSSLSASVGDRVTITCKASQDVTAAVAWYQQKPGKAPKLLIYSASYRYTGVPSRFSGSGSGTDFTLTISSLQPEDFATYYCQQYYNTPLTFGGGTKVEIK

Experiments:
ricin [1] = target: T1, ricin (castor plant, UniProt P02879 36-302; P02879 315-576); assay: ELISA on plate-coated ricin, HRP-goat anti-mouse IgG, TMB, absorbance at 615 nm
ricin [2] = target: T1, ricin; assay: SPR; ricin captured on biosensor chip, antibody in flow; KD from koff/kon
ricin [3] = target: T1, ricin; assay: SPR; ricin captured on biosensor chip, antibody in flow

| Binder | EC50 (read off the curve) (ricin [1]) | Kd (ricin [2]) | koff (ricin [3]) | kon (ricin [3]) |
| --- | --- | --- | --- | --- |
| B1 | ~5 ng/mL | – | – | – |
| B2 | ~10 ng/mL | – | – | – |
| B3 | ~1 ng/mL | – | – | – |
| B4 | ~2 ng/mL | 2.56 nM | 0.00047 s⁻¹ | 184000 M⁻¹ s⁻¹ |
| B5 | – | 1.63 nM | 0.00068 s⁻¹ | 419000 M⁻¹ s⁻¹ |

— patent US20140093504A1 (HER MAJESTY THE QUEEN IN RIGHT OF CANADA AS REPRESENTED BY …, published 2014)
